Results of unrelated studies side by side (data: NIAID ChemDB).

Common to all: whole-cell or culture tests; agent: Candida albicans; endpoint: MIC

Two numbers with a dash give a range or band. Rows are shuffled and stem from different studies. An empty or dashed field is not shown.

Clc1ccc(/C(Cn2ccnc2)=N\OCc2ccccc2)cc1 ; strain or isolate: Y0109 ; value: 16 µg/mL
C[C@@H](SC1COC(/C=C/C=C/c2ccc(C#N)cc2F)OC1)[C@](O)(Cn1cncn1)c1ccc(F)cc1F ; strain or isolate: TIMM3164 ; value: <0.008 µg/mL
Clc1ccc(CO/N=C(\c2ccc(Cl)cc2)c2cc3ccccc3o2)cc1 ; value: 8 µg/mL
COc1ccc(-c2nnc(Nc3nc(O)c(C4=c5ccccc5=NC4=O)s3)o2)cc1 ; strain or isolate: ATCC 10231 ; value: 16 µg/mL
Cc1ccc(C(Cn2ccnc2)OCc2ccc(-c3ccccc3)cc2)cc1 ; strain or isolate: CA2 ; value: 64 µg/mL
CO[C@@H]1C[C@H](C[C@@H](C)[C@@H]2CC(=O)[C@H](C)/C=C(\C)[C@@H](O)[C@@H](OC)C(=O)[C@H](C)C[C@H](C)/C=C/C=C/C=C(\C)[C@@H](N(OC)C(=O)N(C)C)C[C@@H]3CC[C@@H](C)[C@@](O)(O3)C(=O)C(=O)N3CCCC[C@H]3C(=O)O2)CC[C@H]1C(=O)ON(C)O ; strain or isolate: 38247 ; value: 50 µg/mL
CCCCCC(Cn1ccnc1)c1ccc(Br)cc1 ; value: 100 µg/mL
OC(c1cc(C2CC3CCC2CC3)nc2c(Cl)cc(Cl)cc12)C1CCCCN1 ; strain or isolate: ATCC 90028 ; value: 1.5 µg/mL
Nc1[nH]c(=O)ncc1F ; strain or isolate: ATCC 64548 ; value: 0.12 µg/mL
C[C@@H](n1cnc2cc(C(N)=O)ccc2c1=O)[C@](O)(Cn1cncn1)c1ccc(F)cc1F ; strain or isolate: 76 strains ; value: 10 µg/mL
Cc1nn(-c2ccccc2)c2c1C(c1ccccc1)C(C#N)=C(N)O2 ; strain or isolate: MTCC 227 ; value: 500 µg/mL
CO[C@H]1C[C@@H]2CC[C@@H](C)[C@@](O)(O2)C(=O)C(=O)N2CCCC[C@H]2C(=O)O[C@H]([C@H](C)C[C@@H]2CC[C@@H](C(=O)ON3CCNCC3)[C@H](OC)C2)CC(=O)[C@H](C)/C=C(\C)[C@@H](O)[C@@H](OC)C(=O)[C@H](C)C[C@H](C)CCCC/C=C/1C ; strain or isolate: 579A ; value: >100 µg/mL
OC(c1cc(-c2ccc(Cl)cc2)nc2c1ccc1ccccc12)C1CCCCN1 ; strain or isolate: ATCC 90028 ; value: 0.8 µg/mL
Clc1ccc(/C(Cn2ccnc2)=N/OCc2ccccc2)c(Cl)c1 ; strain or isolate: CA6 ; value: 4 µg/mL
c1ccc(-c2ccc(COC(Cn3ccnc3)c3ccccc3)cc2)cc1 ; strain or isolate: 5M ; value: 128 µg/mL
Fc1cc(C2=Nn3c(COc4ccc(Cl)cc4)nnc3S/C2=C\c2ccc(Cl)cc2Cl)c(Cl)cc1Cl ; value: 12.5 µg/mL
CCCCC(Cn1ccnc1)c1ccc(Br)cc1 ; value: 100 µg/mL
CO[C@H]1C[C@@H]2CC[C@@H](C)[C@@](O)(O2)C(=O)C(=O)N2CCCC[C@H]2C(=O)O[C@H]([C@H](C)C[C@@H]2CC[C@@H](C(=O)ON3CCOCC3)[C@H](OC)C2)CC(=O)[C@H](C)/C=C(\C)[C@@H](O)[C@@H](OC)C(=O)[C@H](C)C[C@H](C)CCCC/C=C/1C ; strain or isolate: 442 ; value: >100 µg/mL
Cc1nn(-c2ccccc2)c2c1C(c1cccc(Br)c1)c1c(nc(=O)[nH]c1N)O2 ; strain or isolate: MTCC 227 ; value: 250 µg/mL
COc1ccc(/C=C2\Sc3nnc(COc4ccc(Cl)c(C)c4)n3N=C2c2cc(F)c(Cl)cc2Cl)cc1OC ; value: 12.5 µg/mL
O/N=C(\c1ccccc1)c1cc2ccccc2o1 ; value: 0.5 µg/mL
c1ccc(CO/N=C(/Cn2ccnc2)c2ccccc2)cc1 ; strain or isolate: CDCB385 ; value: 64 µg/mL
O=C1N=c2ccc(F)cc2=C1c1sc(Nc2nnc(-c3ccc(Cl)cc3)o2)nc1O ; strain or isolate: ATCC 10231 ; value: 16 µg/mL
CCCCCCCC(Cn1ccnc1)c1ccc(Cl)cc1 ; value: 10 µg/mL
CO[C@H]1C[C@@H]2CC[C@@H](C)[C@@](O)(O2)C(=O)C(=O)N2CCCC[C@H]2C(=O)O[C@H]([C@H](C)C[C@@H]2CC[C@@H](C(=O)ON(C)OC)[C@H](OC)C2)CC(=O)[C@H](C)/C=C(\C)[C@@H](O)[C@@H](OC)C(=O)[C@H](C)C[C@H](C)CCCC/C=C/1C ; strain or isolate: 38247 ; value: 50 µg/mL
CC(=O)O/N=C(\c1ccc(Cl)cc1)c1cc2ccccc2o1 ; value: 16 µg/mL
CCCCCCCC(Cn1ccnc1)c1ccc(Br)cc1 ; value: 10 µg/mL
Cc1nn(-c2ccccc2)c2c1C(c1ccc(F)cc1)c1c(nc(=S)[nH]c1N)O2 ; strain or isolate: MTCC 227 ; value: 150 µg/mL
Fc1ccc(/C(Cn2ccnc2)=N/OCc2ccccc2)cc1 ; strain or isolate: CA7 ; value: 128 µg/mL
Fc1cc(C2=Nn3c(CNc4ccc(Cl)cc4)nnc3S/C2=C\c2ccc3c(c2)OCO3)c(Cl)cc1Cl ; value: 6 µg/mL
Clc1ccc(/C(Cn2ccnc2)=N/OCc2ccccc2)cc1 ; strain or isolate: PR1 ; value: 32 µg/mL
C[C@@H](n1cnc2cc(F)ccc2c1=O)[C@](O)(Cn1cncn1)c1ccc(F)cc1F ; strain or isolate: 76 strains ; value: 0.31 µg/mL
O=C1N=c2ccc(Br)cc2=C1c1sc(Nc2nnc(-c3ccc(Cl)cc3)o2)nc1O ; strain or isolate: ATCC 10231 ; value: 16 µg/mL
COc1ccc(/C=C2\Sc3nnc(CNc4ccc(Cl)cc4)n3N=C2c2cc(F)c(Cl)cc2Cl)cc1OC ; value: 6 µg/mL
Cc1ccc(C(Cn2ccnc2)OC/C=C/c2ccccc2)cc1 ; strain or isolate: CDCB385 ; value: 128 µg/mL
Cc1nn(-c2ccccc2)c2c1C(c1cccc([N+](=O)[O-])c1)c1c(nc(=O)[nH]c1N)O2 ; strain or isolate: MTCC 227 ; value: 1000 µg/mL
CCCCCCCCC(Cn1ccnc1)c1ccccc1Br ; value: >100 µg/mL
COc1ccc(-c2nnc(Nc3nc(O)c(C4=c5cc([N+](=O)[O-])ccc5=NC4=O)s3)o2)cc1 ; strain or isolate: ATCC 10231 ; value: 16 µg/mL
O=C(Nc1nc2ccc(NC(=O)[C@@H]3CCC[C@H](NCc4ccc5ccccc5c4)C3)cc2s1)C1CCCC1 ; strain or isolate: TIMM 0239 ; value: 0.78 µM
CCCCCCCC(Cn1ccnc1)c1ccc(Cl)cc1Cl ; value: 10 µg/mL
CO/N=C(\c1ccc(OC)cc1)c1cc2ccccc2o1 ; value: 2 µg/mL
Cc1nn(-c2ccccc2)c2c1C(c1ccccc1Cl)C(C#N)=C(N)O2 ; strain or isolate: MTCC 227 ; value: 500 µg/mL
Cc1cc(OCc2nnc3n2N=C(c2cc(F)c(Cl)cc2Cl)/C(=C/c2ccc(Cl)cc2)S3)ccc1Cl ; value: 12.5 µg/mL
CC(C)(C)c1ccc(COC(Cn2ccnc2)c2ccc(Cl)cc2Cl)cc1 ; strain or isolate: 5M ; value: >128 µg/mL
C[C@@H](n1cnc2cc(Sc3ccccc3)ccc2c1=O)[C@](O)(Cn1cncn1)c1ccc(F)cc1F ; strain or isolate: 406 strains ; value: ≤0.03 µg/mL
Clc1ccc(C(Cn2ccnc2)OC/C=C/c2ccccc2)c(Cl)c1 ; strain or isolate: CA7 ; value: 8 µg/mL
C[C@@H](SC1COC(/C=C/C=C/c2ccc(C#N)cc2)OC1)[C@](O)(Cn1cncn1)c1ccc(F)cc1F ; strain or isolate: TIMM3165 ; value: 0.125–0.25 µg/mL
CO[C@@H]1C[C@H](C[C@@H](C)[C@@H]2CC(=O)[C@H](C)/C=C(\C)[C@@H](O)[C@@H](OC)C(=O)[C@H](C)C[C@H](C)/C=C/C=C/C=C(\C)[C@H](N(OC)C(=O)N(C)C)C[C@@H]3CC[C@@H](C)[C@@](O)(O3)C(=O)C(=O)N3CCCC[C@H]3C(=O)O2)CC[C@H]1C(=O)ON(C)O ; strain or isolate: 442 ; value: >100 µg/mL
Cc1ccc(C2c3c(nc(=O)[nH]c3N)Oc3c2c(C)nn3-c2ccccc2)cc1 ; strain or isolate: MTCC 227 ; value: 1000 µg/mL
CCCCC(Cn1ccnc1)c1ccccc1Br ; value: 100 µg/mL
Fc1ccc(NCc2nnc3n2N=C(c2cc(F)c(Cl)cc2Cl)/C(=C/c2ccc(Cl)cc2)S3)cc1Cl ; value: 6 µg/mL
C[C@@H](n1cnc2ccc(Cl)cc2c1=O)[C@](O)(Cn1cncn1)c1ccc(F)cc1F ; strain or isolate: 76 strains ; value: 0.63 µg/mL
CCCCCCCC(Cn1ccnc1)c1c(Cl)cccc1Cl ; value: 10 µg/mL
C[C@H]([C@](O)(Cn1cncn1)c1ccc(F)cc1F)S(C)(=O)=O ; strain or isolate: 60 strains ; value: 0.63 µg/mL
O=C1N=c2ccc([N+](=O)[O-])cc2=C1c1sc(Nc2nnc(-c3ccccc3)o2)nc1O ; strain or isolate: ATCC 10231 ; value: 16 µg/mL

Repeating the final 7 entries:

compound,strain or isolate,value
Cc1ccc(C2c3c(nc(=O)[nH]c3N)Oc3c2c(C)nn3-c2ccccc2)cc1,MTCC 227,1000 µg/mL
CCCCC(Cn1ccnc1)c1ccccc1Br,,100 µg/mL
Fc1ccc(NCc2nnc3n2N=C(c2cc(F)c(Cl)cc2Cl)/C(=C/c2ccc(Cl)cc2)S3)cc1Cl,,6 µg/mL
C[C@@H](n1cnc2ccc(Cl)cc2c1=O)[C@](O)(Cn1cncn1)c1ccc(F)cc1F,76 strains,0.63 µg/mL
CCCCCCCC(Cn1ccnc1)c1c(Cl)cccc1Cl,,10 µg/mL
C[C@H]([C@](O)(Cn1cncn1)c1ccc(F)cc1F)S(C)(=O)=O,60 strains,0.63 µg/mL
O=C1N=c2ccc([N+](=O)[O-])cc2=C1c1sc(Nc2nnc(-c3ccccc3)o2)nc1O,ATCC 10231,16 µg/mL